Data on one substance can be found in US7125541.

In the test the target is human endoglin (human) (UniProt P17813). Kind of test: cell-based or functional assay.

“TEC-11-dgA immunotoxin (from UniProt P02879 36-302)” showed an inhibition of protein synthesis in confluent HUVEC at 10-8 M of 20%, an inhibition of protein synthesis in quiescent HUVEC at 10-8 M of 10% and an inhibition of protein synthesis in subconfluent HUVEC at 10^-10 M of more than 60%.
